For at least one entry, the source does not settle the construct or the ends of the probe. At least one verdict was read from the data and is not stated in words by the source.
Test system: MucR (Brucella abortus)
Experiment: EMSA
Conditions: 25 mM HEPES pH 7.9, 50 mM KCl, 6.25 mM MgCl2, 5% glycerol, recombinant protein

Sequence	binding result (label: FAM)	binding result
ATTGACTAAATAATAAGCTA (double strand) [Seq3]	binds	
CGGACAACAAAAAATTAAAAAAGGAAAACT (double strand) [Site 3]		binds
